Reference: the supplement of paper PMC9931576
Human monoclonal antibodies against the spike receptor-binding domain (heavy:light variable regions). IC50 against pseudoviruses bearing the spike of naturally observed variants; lower = stronger; >10 µg/ml means not reached at the top dose. No active / inactive call. The stated detection limit is 0.0005 µg/ml; values near or below 0.001 µg/ml lie at the floor of the assay.

B1: XGv-050 (protein)
chain 1: EVQLVESGGGLVQPGGSLRLSCAASGFTFSRYDMHWVRQAAGKGLEWVSGIGAPGDTYYAGSVKGRFTISRENAKTSLHLQMNNLRAGDTAVYYCTRGWFGENYMDVWGKGTTVTVSS
chain 2: EIVLTQSPATLSLSPGERATLSCRASQSVSNHLAWFQQKPGQSPRLLIYDASNRATGIPARFSGSGSGTDFTLTISSLEPEDFAIYYCHQRSNWPTFGQGTKVEIK
B2: XGv-094 (protein)
chain 1: QVQLQESGPGLVKPSQTLLLTCAVSGDSISSSSWWSWVRQSPRKGLEWIGEIYHRASTNYNPSLKSRATISVDKSKNQFSLKLSSVTAADTAMYYCARRRPSDYIAFDLWGQGTMVTVSS
chain 2: DIQMTQSPSSLSASVGDRVTITCRANQDINDYLIWYQQKPGKAPKLLIYAASSLQSGVPSRFTGSGSGTHFTLTISSLQPEDFATYYCQQSYSSTLTFGGGTQVQIK
B3: XGv-101 (protein)
chain 1: QVQLVQSGTEMKKPGASVKVSCKASGYTFGSYGISWVRQAPGQGLEWMGWISAYDGNTNYAQKVKGRVTMTRDTSTSTVYMELRSLRSDDTAVYYCARVDSYYSDSSAYYFDYWGQGTLVTVSS
chain 2: EIVMTQSPATLSVSLGERATLSCRASQSVSSHLAWYQQKPGQAPRLLIYGASTRATGVPARFSGSGSGTEFTLSISSLQSEDFAVYYCQQYSDWPPLFTFGPGSKVDVK
B4: XGv-056 (protein)
chain 1: EVQLVESGGGLVQPGGSLRLSCAAFGFSFSIYDMHWVRQTTGKGLEWVSGIGTTGDTYYPDSVKGRFTISREDAKNSLYFQMNSLRAGDTAVYYCARVGRGFGEIGYDFWGQGTLVTVSS
chain 2: SYVLTQPPSVSVAPGKTARITCGGNNIGSKSVHWYQQKPGQAPVLVIYYNSDRPSGIPERFSGSNSGNTATLTISGVEAGDEADYYCQVWNSRSDHAVVFGGGTRL
B5: XGv-057 (protein)
chain 1: EVQLVESGGGLVQPGGSLRLSCAASGFSFSIYDMHWVRQTTGKGLEWVSGIGTTGDTYYPDSVKGRFTISREDAKNSLYLQMNSLRAGDTAVYYCARVGRGFGEIGYDFWGQGTLVTVSS
chain 2: SYVLTQPPSVSVAPGKTARITCGGNNIGSKSVHWYQQKPGQAPVLVIYYNSDRPSGIPERFSGSNSGNTATLTISGVEAGDEADYYCQVWNSRSDHAVVFGGGTRLTVL
B6: XGv-116 (protein)
chain 1: QVQLVESGGGVVQPERSLRLSCAASGFTFSSYTMHWVRQAPGKGLEWVAIISYDGSSEYYADSVKGRFTISRDNSKNTLYLQMNSLRVEDTAVYYCARVDRSGYYTWGEEHYWGQGALVTVSS
chain 2: EIVLTQSPVTLSLSPGERATLSCRASQSVSSYLAWYQQKPGQAPRLLIYDASNRATGIPARFSGSGSGTDFTLTISSLEPEDFAVYYCHQRSNWPGTFGQGTKVEIK
B7: XGv-177 (protein)
chain 1: EVQLVESGGGLIQPGGSLRLSCAASGVTVSSNYMTWVRQAPGKGLDWVSVIYSGGSTFYADSVKGRFTISRDNSKNTLYLQMNSLRVEDTAVYYCARDLVDYGLDVWGQGTTVTVSS
chain 2: DIQLTQSPSFLSASVGDRVTITCRASQGIASYLAWYQQKPGKPPKLLIYAASTLQSGVPTRFSGSGSGTEFTLTITSLQPEDFATYYCQLLSRHPPTFGGGTKVEI
B8: XGv-227 (protein)
chain 1: EVQLVESGGGLVKPGGSLRLSCAASGFTYSNAWMTWVRQAPGKGLEWVGRVKSKSDGGTTDYAAPVKGRFTISRDDSKKMLYLQMNSLKTEDTAVYYCSTSEIGIVGATELLYWGQGTLLTVSS
chain 2: DIQMTQSPSSLSASVGDRVTITCRASQRINSYLNWYQQKPGKAPNLLIFGASNFQSGVPSRFSGSGSGTDFTLTISSLQPEDFATYYCQQSYITPWTFGQGTKVEMK
B9: XGv-055 (protein)
chain 1: QVQLVQSGAEVKKPGSSVKVSCKASGGTFSSYALSWVRQAPGQGLEWMGGIIPIFGTTNYAQKFQGRVTITADESSSTAYMELSSLRSEDTAVYYCARLDGYSFGHNRYYQDGMDDWGQGTTVTVSS
chain 2: DIQMTQSPSSLSASVGDRVTITCRASQGIRNDLGWYQQKPGKAPKCLIYAASTLQSGVPSRFSGSGSGTEFTLTISSLQPEDFATYYCLQQNIYPRTFGQGTKVEIK
B10: XGv-073 (protein)
chain 1: EVQLVESGGALVQPGGSLRLSCAASGFTFSTYDMHWVRQSTGKGLEWVSAIGTAGDTYYSDSVKGRFTISRENAKNSLYLQMNSLRAGDTAVYYCGRGGNGYHWYFDLWGRGTLVSVSS
chain 2: DIQMTQSPSSLSASVGDRVTITCRASQSISSYLNWYQQKPGKAPKLLIYASSTLQSGVPSRFSGSGSGTDFTLTISSLQPEDFATYYCQQSYSMPPVTFGQGTRLDIK
B11: XGv-105 (protein)
chain 1: EVQLLESGGGLVQPGGSLRLSCAASTITFSGYAMNWVRQAPGKGLEWVSGISGTGGRTYYADSVKGRFTISRDESKNTLFLQMNSLRAEDTAVYYCAKDGIFGYCDGGICYSAYFDSWGQGTLVTVSS
chain 2: QSVLTQPPSASGTPGQRVTISCSGSSSNIGRNTVNWYQQLPGTAPKLLIYTNNQRPSGVPDRFSGSKSGTSASLAVSGLQSEDEADYYCAAWDDSLNGVVFGGGTKLTVL
B12: XGv-157 (protein)
chain 1: QVQLVQSGAEMKKPGASVKVSCKASGYTFSNYGINWVRQAPGRGLEWMGWISGYNGNTKYAQKLQGRVTMTTDTSTTTAYMELRSLRSDDTAVYYCARTLGLWFGVDNWGQGTLVTVSS
chain 2: NFMLTQPHSVSESPGKTVTISCTGSSGSIASNYVQWYQQRPGSAPTTVIYEDKQRPSGVPDRFSGSIDSSSNSASLTISGLKNEDESDYYCQSYDGSSVIFGGGTK
B13: XGv-208 (protein)
chain 1: QLQLQESGPGLVRPSETLSLTCTVSGWSISSSNYYWGWIRQPPGKGLEWIGNVHNRGSTSYNPSLKSRVTISVDTSKNQFSLRLSSVTAADTALYYCVRGLGFLDPWGQGTLVTVSS
chain 2: DIQMTQSPSSLSASVGDRVTITCRASQGIRNSLAWYQQKPGLAPQLLLYAASTLESGVPSRFSGSGSGTEFTLTISSLQPEDFATYYCQQYYSPPPYTFGQGTKLESK

Biological target: SARS-CoV-2 Omicron BA.1 spike pseudovirus
Test: pseudovirus neutralization IC50; higher = weaker neutralization
Description: (§1)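 Single-round VSV luciferase pseudovirus mixed with antibody dilutions for 1 h and put on Huh-7 cells for about a day; IC50 from the dose curve.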

Binder | pseudovirus neutralization IC50
B1 | 2.54 µg/mL
B2 | > 10 µg/mL
B3 | 0.378 µg/mL
B4 | > 10 µg/mL
B5 | > 10 µg/mL
B6 | 1.01 µg/mL
B7 | 1.86 µg/mL
B8 | 0.492 µg/mL
B9 | 0.0392 µg/mL
B10 | > 10 µg/mL
B11 | 2.26 µg/mL
B12 | > 10 µg/mL
B13 | > 10 µg/mL

Biological target: SARS-CoV-2 Omicron BA.2 spike pseudovirus
Test: as above
Description: as §1

Binder | pseudovirus neutralization IC50
B1 | 3.5 µg/mL
B2 | > 10 µg/mL
B3 | 0.914 µg/mL
B4 | > 10 µg/mL
B5 | 3.26 µg/mL
B6 | > 10 µg/mL
B7 | 0.426 µg/mL
B8 | 0.583 µg/mL
B9 | 0.00261 µg/mL
B10 | > 10 µg/mL
B11 | > 10 µg/mL
B12 | > 10 µg/mL
B13 | > 10 µg/mL

Biological target: SARS-CoV-2 Omicron BA.2.75 spike pseudovirus
Test: as above
Description: as §1

Binder | pseudovirus neutralization IC50
B1 | 0.0708 µg/mL
B2 | > 10 µg/mL
B3 | 0.902 µg/mL
B4 | > 10 µg/mL
B5 | > 10 µg/mL
B6 | > 10 µg/mL
B7 | 4.44 µg/mL
B8 | 0.785 µg/mL
B9 | 0.0241 µg/mL
B10 | > 10 µg/mL
B11 | 6 µg/mL
B12 | > 10 µg/mL
B13 | > 10 µg/mL

Biological target: SARS-CoV-2 Omicron BA.5 spike pseudovirus
Test: as above
Description: as §1

Binder | pseudovirus neutralization IC50
B1 | > 10 µg/mL
B2 | > 10 µg/mL
B3 | 0.829 µg/mL
B4 | > 10 µg/mL
B5 | > 10 µg/mL
B6 | > 10 µg/mL
B7 | 5.96 µg/mL
B8 | 5.48 µg/mL
B9 | 2.66 µg/mL
B10 | > 10 µg/mL
B11 | 6.46 µg/mL
B12 | > 10 µg/mL
B13 | > 10 µg/mL

Biological target: SARS-CoV-2 Omicron BQ.1.1 spike pseudovirus
Test: as above
Description: as §1

Binder | pseudovirus neutralization IC50
B1 | > 10 µg/mL
B2 | > 10 µg/mL
B3 | > 10 µg/mL
B4 | > 10 µg/mL
B5 | > 10 µg/mL
B6 | > 10 µg/mL
B7 | > 10 µg/mL
B8 | > 10 µg/mL
B9 | > 10 µg/mL
B10 | > 10 µg/mL
B11 | > 10 µg/mL
B12 | > 10 µg/mL
B13 | > 10 µg/mL

Biological target: SARS-CoV-2 Omicron XBB spike pseudovirus
Test: as above
Description: as §1

Binder | pseudovirus neutralization IC50
B1 | > 10 µg/mL
B2 | > 10 µg/mL
B3 | > 10 µg/mL
B4 | > 10 µg/mL
B5 | > 10 µg/mL
B6 | > 10 µg/mL
B7 | > 10 µg/mL
B8 | > 10 µg/mL
B9 | > 10 µg/mL
B10 | > 10 µg/mL
B11 | 5.26 µg/mL
B12 | > 10 µg/mL
B13 | > 10 µg/mL

Biological target: SARS-CoV-2 early D614G spike pseudovirus
Test: as above
Description: as §1

Binder | pseudovirus neutralization IC50
B1 | 0.00917 µg/mL
B2 | 0.0767 µg/mL
B3 | 3.07 µg/mL
B4 | 0.769 µg/mL
B5 | 0.465 µg/mL
B6 | 0.063 µg/mL
B7 | 0.0313 µg/mL
B8 | 0.291 µg/mL
B9 | 0.0169 µg/mL
B10 | 0.49 µg/mL
B11 | 1.69 µg/mL
B12 | 0.715 µg/mL
B13 | 0.00373 µg/mL
